This series concerns E. coli ribosomal A-site oligonucleotide (SEQ ID No. 1). As to the kind of experiment: 96-well F-neo displacement HTS on ribosomal A-site. In kind it is binding. An excerpt:
[drawing 24] where FHNeo represents the protonated form of F-neo. F(-)Neo, upon binding to nucleic acids such as DNA or RNA, is destabilized by the nucleic acid backbone negative potential, shifting the equilibrium towards FH, making F-neo a weaker acid, raising the pKa, which is what we observe upon binding to the A-site. For the A-site targeted assay, we calculated the Z' factor (Z=1-3(2.7+2.8)/(414-267)=0.89. […] Provided is a detailed example for the development of a HTS by the displacement of a fluorescene-neomycin (F-neo (42a)) from rRNA A-site oligonucleotide (SEQ ID No. 1) using a 96 well plate format and a fluorescent plate reader. […] This HTS involves the displacement of a fluorescene-neomycin (F-neo (42a)) by potential RNA binding molecules in a 96 well plate format using a fluorescent plate reader. […] F-neo based RNA binding assays have been performed using a fluorescence spectrophotometer with a 96-well plate reader and results recorded in FIG. 4. […] Fo is defined as the baseline fluorescence intensity of the RNA/F-neo complex and F is the intensity with added drug. The difference between the fluorescence intensity baseline of F-neo/A-site complex and complex with added drug (F-Fo) indicates the extent of the competition of drug for the binding site, this allows the relative binding affinities of aminoglycosides to be established. […]

Molecules are shown by their SMILES. “And” between values parts separate entries of the source, which are not always exact repeats. Equal values may be shown once.

`NCC1O[C@H](OC2C(O)C(OC3C(O)[C@H](N)CC(N)[C@H]3O[C@H]3OC(CN)[C@@H](O)C(O)C3N)O[C@@H]2CSCCNC(=O)CCSCC(=O)Nc2ccc(-c3c4ccc(=O)cc-4oc4cc(O)ccc34)c(C(=O)O)c2)C(N)C(O)[C@@H]1O` (some centres unmarked) [F-neo (42a), Neomycin-Fluorescein Conjugate]: the “Z′-factor” value (0.3 μM neomycin to 0.1 μM E coli A-site/F-neo (42a) complex, 48 wells each, three consecutive days) was 0.81 and 0.80 and 0.87. Moreover, the “Z′ factor” value (A-site targeted assay, Z=1-3(2.7+2.8)/(414-267)) is listed as 0.89.

For the origin of these results see patent US10203334B2, “Methods and compositions related to nucleic acid binding assays” (Nubad, LLC, priority 2012, dated 2019).
